From the supplement of paper PMC9931576
Human monoclonal antibodies against the spike receptor-binding domain (heavy:light variable regions). IC50 against pseudoviruses bearing the spike of naturally observed variants; lower = stronger; >10 µg/ml means not reached at the top dose. No active / inactive call. The stated detection limit is 0.0005 µg/ml; values near or below 0.001 µg/ml lie at the floor of the assay.

B1: BD57-054 (protein)
chain 1: QVQLVQSGAEVRKPGSSVKVSCKASGGTFSSYAITWVRQAPGQGLEWMGRIIPMLGVAIFAQKFLDRVTLTADKSTDTAYMELTGLRYEDTAVYFCARDPRPIVVVAVPFGMDVWGQGTTVTVSS
chain 2: DIVMTQSPLSLSVTPGESASISCRSSESLLQSDGNNYLDWYLQKPGQSPQLLIYSGSVRASGVPDRISGSGSGTDFTLKISRVEAEDVGVYYCMQALQAPPYTFGQGTKLE
B2: BD57-056 (protein)
chain 1: EVQLVESGGGLVQPGRSLRLSCAASGFTFEDNAMHWVRQAPGKGLEWVSGISKHSAAIEYVDSVKGRFTISRDDAKNSLYLQMNRLRAEDTALYHCVKGSWDIAMVVSAAAPDYVLDMWGQGTMVTVSS
chain 2: DIQMTQSPSSLSASVGDRVTITCRASQSIGNYLNWYQQKPGKAPNLLIYAASNLQSGVASRFSGSGSGTDFTLSISGLQPEDFATYYCQQSYSTPLTFGGGTRVEIK
B3: BD57-059 (protein)
chain 1: QVHLVQSGAEVKPPGSSVKVSCKASGGTFITYGINWVRQAPGQGLEWMGRIIPILGIPDYAQKFQGRVTITADKPTSTAYMELSSLKSEDTAVYYCATLGQQPYNNYGLGHYYYMDVWGKGTTVTVSS
chain 2: DIQMTQSPSSLSASVGDRVTITCRASQGIDNWLAWYQQKPEGAPKSLIYDATSLQSGVPSRFSGSGSGTDFTLTISSLQPEDFATYYCQQYNSYPVTFGGGTKVEIK
B4: BD57-060 (protein)
chain 1: EVQLVESGGGLVQPGRSLRLSCEASGFTFDDYAMHWVRQAPGKGLEWVSGTTYNSGTIGYADSVKGRFTISRDNAKNSLYLQINSLRPEDTALYHCAKDIYLGYSSGPEIYAFDIWGQGTMVTVSS
chain 2: SYVLTQSPSVSVAPGKTARITCGGNNIGSKSVHWYQQKPGQAPVLVVYDGGGRPSGIPERFSDSSSGNTATLTISRVEAGDEADYYCQVWDGSSDHVVFGGGTKLTVL
B5: BD57-061 (protein)
chain 1: QVQLVQSGAEVKKPGASVKVSCKASGYTFISYHIHWVRQAPGQGLEWMGIINPSGGSTSYAQKFQGRVTMTRDTSTSTVYMEVSSLRSEDTAMYYCARSTYYSDSSGISWYYFDYWGQGTLVTVSS
chain 2: QSVLTQPPSVSGAPGQRVTISCTGSSSNIGAGYDVHWYQLLPGTAPKLLIYGNRNRPSGVPDRFSGSKSGTSASLAITGLQAEDEAAYYCQAYDSSLTGSVFGGGTKLTVL
B6: BD57-063 (protein)
chain 1: ELQLVDSGGGLVQPGRSLRLSCVASGFTFDEYAMHWVRQGPGKGLEWVSGISWNSGRIAYADSVKGRFTISRDNAENSLHLQMNSLRAEDTAFYYCAKGYCGGDCYSGLLDWYFDLWGRGTLVTVSS
chain 2: QSALTQPASVSGSPGQSITISCTGTSSDVGDYNYVSWYQQHPGKAPKLLIYDVNTRPSGVSNRFSGSKSGNTASLTISGLQAEDESDYFCSSYRSSSTLVFGGGTKLTVL
B7: BD57-064 (protein)
chain 1: EVQLVESGGGLVQPGGSLRLSCAASGFTFSSYDMHWVRQTTGKGLEWVSAIGTAGDTYYPDSVKGRFTISRENAKNSLYLQLNRLTAGDTAVYYCARGGMYGSGTYDLVTWYFDLWGRGTPVTVSS
chain 2: DIQMTQSPSSLSASVGDRVTITCRASQSISRYLHWYQQKPGKAPKLLIYGASNLQSGVPSRFSGSGSGTDFTLTISGLQPEDFGTYYCQQSYTNPPITFGQGTRLEIK
B8: BD57-065 (protein)
chain 1: EVQLVESGGGLVQPGRSLRLSCAASGFTFDEYTIHWVRQAPGKGLEWVSGTSWNSGTIGYADSVMGRFTISRDNAKKSVYLQMNSLRPEDTALYYCTKAFWGGDCGGDCYGVDYWGQGTLVTVSS
chain 2: QSVLTQPPSVSGAPGQRVTISCTGSSSNIGADYAVHWYQQLPGTAPKLVIYDNTNRPSGVPDRFSGSKSGTSASLAITGLQAEDEADYYCQSYDSSLSGTVVFGGGTKLTVL
B9: BD57-068 (protein)
chain 1: EVQLVESGGGLVQSGRSLRLSCAASGFTFEDYAMHWVRQAPGKGLEWVSGISWNGGIIGYADSVKGRFIISRDNAKNSLYVQMYSLRVEDTALYYCAKAVDYGDYDGGFQHWGQGTLVTVSS
chain 2: QSALTQPASVSGSPGQSITISCTGSSSDVGGYNYVSWYQQHPGKAPKLTIYDVGKRPSGVSNRFSGSKSGNTASLTISGLQAEDEADYYCCSYTSSSSVVFGGGTKLTVL
B10: BD57-070 (protein)
chain 1: QVQLQESGPGLVKPSQTLSLTCTVSGGSLSSGFYYWSWIRQPAGKGLEWIGRIYPTGSTNYNPSLKSRVTISIDMSRKHFSLKLSSVTAADTAVYYCARDRNPTILGVADDLPEVSWGQGTLVTVSS
chain 2: DIQMTQSPSSLSASVGDRVTITCQASQDIRDYLKWYQQKPGKAPNLLIYDASNLETGVPSRFSGSGSGTDFTFTISSLQPEDIATYYCQQYDDLVTFGGGTTVEIK
B11: BD57-071 (protein)
chain 1: QVQLVQSGAEVKKPGASVRVSCKASGYTFTSYYMHWVRQAPGQGLEWMGTIDPTGGSTSYAQKFQGRVTMTRDTSTSPVYMELSSLRSDDTAVYYCATSTVTTLFVDYWGQGTLVTVSS
chain 2: NFMLTQPHSVSESPGKTVTISCTRSSGSIANNYVQWYQQRPGSAPTTVIYEDNQRPSGVPDRFSGSIDSSSNSASLTISGLKTEDEADYYCQSYDTNINWVFGGGTKLTVL
B12: BD57-072 (protein)
chain 1: EVQLVESGGGLVQPGRSLRLSCAASGFTFEDYAMHWVRQAPGKGLEWVSVISWNSGGIAYADSVKGRFTISRDNAKNSLYLQMNSLRPEDTALYYCAKGWFGEWLGGIDPWGQGTLVTVSS
chain 2: QSVLTQPPSVSGAPGQRVTISCTGSSSNIGAGFDVYWYQQLPGTAPKLLIYGNSNRPSGVPDRFSGSKSGTSASLAITGLQVEDEAYYYCQSYDISLSGSGVFGGGTKLTVL

Columns and labels:
Assay in all cases: pseudovirus neutralization IC50; higher = weaker neutralization
[1] = target: SARS-CoV-2 Omicron BA.1 spike pseudovirus
Procedure: (§1)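 Single-round VSV luciferase pseudovirus mixed with antibody dilutions for 1 h and put on Huh-7 cells for about a day; IC50 from the dose curve.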

[2] = target: SARS-CoV-2 Omicron BA.2 spike pseudovirus
Procedure: as §1

[3] = target: SARS-CoV-2 Omicron BA.2.75 spike pseudovirus
Procedure: as §1

[4] = target: SARS-CoV-2 Omicron BA.5 spike pseudovirus
Procedure: as §1

[5] = target: SARS-CoV-2 Omicron BQ.1.1 spike pseudovirus
Procedure: as §1

[6] = target: SARS-CoV-2 Omicron XBB spike pseudovirus
Procedure: as §1

[7] = target: SARS-CoV-2 early D614G spike pseudovirus
Procedure: as §1

Binder	pseudovirus neutralization IC50 [1]	pseudovirus neutralization IC50 [2]	pseudovirus neutralization IC50 [3]	pseudovirus neutralization IC50 [4]	pseudovirus neutralization IC50 [5]	pseudovirus neutralization IC50 [6]	pseudovirus neutralization IC50 [7]
B1	0.00687 µg/mL	0.00101 µg/mL	0.00634 µg/mL	5.49 µg/mL	> 10 µg/mL	> 10 µg/mL	0.00335 µg/mL
B2	0.00111 µg/mL	0.00125 µg/mL	0.00105 µg/mL	0.12 µg/mL	0.0756 µg/mL	0.171 µg/mL	0.00303 µg/mL
B3	0.0143 µg/mL	0.0177 µg/mL	0.00975 µg/mL	0.0872 µg/mL	> 10 µg/mL	> 10 µg/mL	0.022 µg/mL
B4	0.0938 µg/mL	0.0887 µg/mL	0.0704 µg/mL	0.241 µg/mL	> 10 µg/mL	> 10 µg/mL	0.0176 µg/mL
B5	0.391 µg/mL	0.00438 µg/mL	0.343 µg/mL	0.0104 µg/mL	0.0116 µg/mL	> 10 µg/mL	0.00152 µg/mL
B6	0.673 µg/mL	0.846 µg/mL	4.82 µg/mL	4.01 µg/mL	4.74 µg/mL	6.25 µg/mL	0.736 µg/mL
B7	> 10 µg/mL	> 10 µg/mL	> 10 µg/mL	> 10 µg/mL	> 10 µg/mL	> 10 µg/mL	> 10 µg/mL
B8	0.0337 µg/mL	0.0364 µg/mL	0.0337 µg/mL	0.512 µg/mL	> 10 µg/mL	> 10 µg/mL	0.0404 µg/mL
B9	0.145 µg/mL	0.156 µg/mL	0.095 µg/mL	1.25 µg/mL	> 10 µg/mL	> 10 µg/mL	0.0421 µg/mL
B10	0.0489 µg/mL	0.0472 µg/mL	0.0467 µg/mL	7.19 µg/mL	> 10 µg/mL	> 10 µg/mL	0.067 µg/mL
B11	0.209 µg/mL	0.333 µg/mL	0.15 µg/mL	0.0489 µg/mL	4.74 µg/mL	5.23 µg/mL	0.298 µg/mL
B12	> 10 µg/mL	> 10 µg/mL	> 10 µg/mL	> 10 µg/mL	> 10 µg/mL	> 10 µg/mL	2.51 µg/mL
